Primary screen of a compound library

Mtb glucose medium: 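Phenotypic screen: M. tuberculosis growth, glucose 7H9 medium, 3 days; the read-out is not stated. Concentration: 500 µM. Direction is inferred from retests: higher values go with more growth inhibition. Size under these conditions: about 18,000 compounds, about 1,400 of them at 50% or above in at least one test.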
Mtb cholesterol medium: 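Growth of Mycobacterium tuberculosis over 4 days (cholesterol / DPPC medium with tyloxapol); the read-out is not stated. Concentration: 500 µM. Higher reads as more growth inhibition (inferred: compounds with an IC50 in retests scored well above the rest). Of about 18,000 compounds tested this way, about 900 (5%) reached 50% or more in at least one test.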

Results are given as percent effect.
How 0% and 100% were set is not recorded. Most values in the screen are low, and negative values occur.
This is part of a subset picked to be rich in strong results.
A dash means the value is not listed here; it may have been measured.

compound	Mtb glucose medium	Mtb cholesterol medium
O=C1CN(C(=O)CCC(=O)c2ccc(Cl)cc2)CCN1	1.21%	-
CCn1cc(CN2CCN(C3CCOCC3)CC2)cn1	-5.326%	-
CN(C)C(=O)CCN1CCC(N)CC1	-0.6514%	-
CC(C)N(CCCNC(=O)c1cnccn1)S(C)(=O)=O	-	-0.05398%
O=C(NC1CC1)c1cccc2cn[nH]c12	18.39%	-
c1ccc(C2CCCN2)nc1 (stereo unspecified)	-	9.272%
CC(C)O[C@@H]1CCNC1	-6.578%	-
Cc1[nH]ncc1CNCC(O)CN1CCCCC1 (stereo unspecified)	-12.03%	-
CC(C)COCCN1CCS(=O)(=O)CC(C)C1 (stereo unspecified)	7.632%	-
CCOCCCC(=O)NCCC(=O)Nc1ccccc1	-	-7.063%
CC(=O)N1CCC(CN)CC1	-	-1.579%
CCc1ccsc1C(=O)NCC(C)N1CCN(C)CC1 (stereo unspecified)	7.117%	-
CCOc1ccc(NC(=O)N2CCC(N)C2)cc1C#N (stereo unspecified)	39.6%	-
CCCN1CCC(NCCc2ccccn2)CC1	-6.818%	-
COc1ccc(F)c(N2CCNCC2)c1	44.86%	-
COC(=O)c1ccc2[nH]c(CN)nc2c1	15.53%	-
NC(=O)CCN1CCCC1	-10.05%	-10.9%
CN(C)c1ccc(CN(C)[C@@H]2CCCC[C@@H]2O)cn1	13.01%	-
NC1CCN(c2ccccc2OC(F)F)C1 (stereo unspecified)	75.88%	38.68%
O=c1[nH]nc(CNc2ccc(Br)cc2)[nH]1	44.26%	-
Cc1ccc(S(=O)(=O)CCC(=O)NC(N)=O)cc1	92.83%	78.75%
Cc1nsc(NC(=O)N2CCC(CN)CC2)n1	10.53%	-
O=C(CSCc1ccc(Cl)s1)N1CCOCC1	58.99%	-
CC(C)c1cc(C(=O)N[C@@H]2CCOC[C@H]2O)no1	-	15.76%
CCc1nc(C2(N)CCCC2)no1	-	8.345%
O=C(c1ccc[nH]1)N(Cc1ccco1)CC1CCCO1 (stereo unspecified)	21.56%	-
COCC(O)CN(C)C(=O)Cc1cc(Cl)ccc1Cl (stereo unspecified)	17.36%	-
CC(C(N)=O)S(=O)(=O)Cc1ccccc1C(F)(F)F (stereo unspecified)	-	-8.284%
COc1ccc(C(F)(F)F)cn1	-2.921%	-
OCCNCCNCc1ccc(-c2ccccc2)o1	56.39%	57.73%
CC(C)C(=O)CNC(=O)C(O)c1ccccc1 (stereo unspecified)	21.76%	3.727%
NCc1cccc(C(=O)NC2CC2)c1	7.895%	-3.634%
NS(=O)(=O)CCN1CCOC(c2ccccc2)C1 (stereo unspecified)	-	2.921%
COCCCC1(CO)CCCN(Cc2cncnc2)C1 (stereo unspecified)	8.066%	-
CC(C#N)N1CCOCC1 (stereo unspecified)	-1.537%	-
CSCCC(C)(N)C#N (stereo unspecified)	-	10.82%
Cc1ccc(CN2CCC(C3CCNC3)CC2)nc1 (stereo unspecified)	-	0.2653%
CNC1(CO)CCc2ccccc21 (stereo unspecified)	-	1.489%
N#CCOC(=O)c1ccc2c(c1)OCCCO2	-	51.62%
Cn1cc(NC(=O)NC2CCCCC2)c(C(N)=O)n1	-	10.29%
OC(c1cc2n(n1)CCN(Cc1ccoc1)C2)C1CC1 (stereo unspecified)	4.969%	-
O=C(OCCc1ccccc1F)C1CCS(=O)(=O)C1 (stereo unspecified)	25.66%	-
CN(CC(N)=O)Cc1cccc(Cl)c1	17.58%	-
CCn1cc(NC(=O)C2(NC(C)=O)CCCCC2)cn1	-	-5.894%
NC(=O)C(N)c1ccc2c(c1)OCCO2 (stereo unspecified)	96.45%	63.41%
CC(=O)N1CCC(N)c2ccccc21 (stereo unspecified)	-1.551%	-
O=C(NCc1ccccc1OCC1CC1)c1c[nH]nn1	40.66%	-
COC(=O)CCN(Cc1nccn1C)CC1CCCO1 (stereo unspecified)	27.78%	-
CC(C)NC(=O)c1ccc(N2CCCCC2=O)cc1	80.65%	-
Cc1ccc([C@@H](O)CN)cc1	15.43%	9.149%
COCCCC(=O)N1CCN(CC(C)O)CC1 (stereo unspecified)	4.665%	-
Cn1cc(CNC(=O)c2c(Br)cnn2C)cn1	16.15%	-
CNCc1ncon1	2.819%	-
CC(C)Nc1ccc(F)cc1OCCO	-	-5.43%
Nc1ccc(CNc2nc(C3CC3)ns2)cn1	60.16%	-
COC(=O)c1ccc(CSc2n[nH]c(C)n2)o1	63.97%	69.04%
Fc1cccnc1N1CCNCC1	16.02%	-
CCN(CCC#N)C(=O)CNc1cc(F)ccc1F	6.664%	-
CCOC(=O)CCNC(=O)N1CCN(CC(C)C)CC1	12.44%	-
NC(=O)[C@@H]1Cc2ccccc2N1C(=O)C1CCOCC1	-	3.096%
CN(CCCOc1ccc(F)cc1)CC(=O)NC(N)=O	-	-14.47%
COC(=O)c1cccc(OCC(O)C(F)(F)F)c1 (stereo unspecified)	-	55.85%
CN1C(=O)CC(Nc2ccc3c(c2)CCC3)C1=O (stereo unspecified)	-	8.34%
Cc1nn(-c2ccccc2)c(C)c1C(=O)N(C)C	-14.09%	-
CCC(C)(C)NC(=O)c1ccn(-c2ccccc2F)n1	81.41%	81.48%
COCCCN1CCC(CNc2ccncn2)C1 (stereo unspecified)	-	4.121%
COCCNCC(=O)Nc1cccc(C(C)SC)c1 (stereo unspecified)	41.57%	-
COCC(=O)NC(C)Cc1ccco1 (stereo unspecified)	30.18%	-
CSc1ncc(CNCC2(O)CCCNC2)n1C (stereo unspecified)	7.194%	-
COCCNCC(=O)OC	-5.137%	-
CN(Cc1ccsc1)CC(O)COCc1ccco1 (stereo unspecified)	45.64%	49.4%

The first 8 entries again:

compound	Mtb glucose medium	Mtb cholesterol medium
O=C1CN(C(=O)CCC(=O)c2ccc(Cl)cc2)CCN1	1.21%	-
CCn1cc(CN2CCN(C3CCOCC3)CC2)cn1	-5.326%	-
CN(C)C(=O)CCN1CCC(N)CC1	-0.6514%	-
CC(C)N(CCCNC(=O)c1cnccn1)S(C)(=O)=O	-	-0.05398%
O=C(NC1CC1)c1cccc2cn[nH]c12	18.39%	-
c1ccc(C2CCCN2)nc1 (stereo unspecified)	-	9.272%
CC(C)O[C@@H]1CCNC1	-6.578%	-
Cc1[nH]ncc1CNCC(O)CN1CCCCC1 (stereo unspecified)	-12.03%	-

Source: ChEMBL document CHEMBL3988442, “University of Dundee, Small-Polar-MMV Screening Library” (2021).